Results of unrelated studies side by side (data: NIAID ChemDB).

Shared fields: whole-cell or culture tests; agent: Mycobacterium smegmatis; read-out: MIC

a–b is a range or a potency band.

Cc1c2cc[n+](CCN3CCCCC3)cc2c(C)c2c1[nH]c1ccc(O)cc12 ; strain: mc2155 ; value: 25 µM
CCCc1cnc(C(=O)/C=C/c2ccccc2Br)cn1 ; strain: CCM ; method: absorbance ; value: >500 µg/mL
C[C@H]1c2cccc(O)c2C(O)=C2C(=O)[C@]3(O)C(O)=C(C(N)=O)C(=O)[C@@H](N(C)C)[C@@H]3[C@@H](O)[C@@H]21 ; strain: A24001 ; value: 0.06 µg/mL
NC1CCN(c2c(F)cc3c(=O)c(C(=O)O)cn(-c4ccc(F)cc4F)c3c2F)C1 ; strain: ATCC 19420 ; value: 0.5 µg/mL
CC(C)(C)c1cnc(C(=O)/C=C/c2ccccc2Cl)cn1 ; strain: CCM ; method: absorbance ; value: 3.9 µg/mL
CO[C@H]1/C=C/O[C@@]2(C)Oc3c(C)c(O)c4c(O)c(c(/C=N/N5CCN(C)CC5)c(O)c4c3C2=O)NC(=O)/C(C)=C\C=C\[C@H](C)[C@H](O)[C@@H](C)[C@@H](O)[C@@H](C)[C@H](OC(C)=O)[C@@H]1C ; strain: mc2155 ; method: resazurin ; value: 31 µM
Cc1c(N)nc([C@H](CC(N)=O)NC[C@H](N)C(N)=O)nc1C(=O)N[C@H](C(=O)N[C@H](C)[C@@H](O)[C@H](C)C(=O)N[C@H](C(=O)NCCc1nc(-c2nc(C(=O)NCCC[S+](C)C)cs2)cs1)[C@@H](C)O)C(O[C@@H]1O[C@@H](CO)[C@@H](O)[C@H](O)[C@@H]1O[C@H]1O[C@H](CO)[C@@H](O)[C@H](OC(N)=O)[C@@H]1O)c1cnc[nH]1 ; strain: mc2155 ; value: 3.125 µM
CNCC1CCN(c2c(F)cc3c(=O)c(C(=O)O)cn(-c4ccc(F)cc4F)c3c2F)C1 ; strain: ATCC 19420 ; value: 0.5 µg/mL
Cc1ccc2oc3ccccc3c(=O)c2c1 ; strain: ATCC 607 ; value: >32 µg/mL
C=C(C)O[C@H]1C[C@@]2(C)[C@@H](C[C@@H](O)[C@H]3[C@@]4(C)CC[C@@H](O)[C@@H](C)[C@@H]4CC[C@@]32C)/C1=C(\CCC=C(C)C)C(=O)[O-] ; strain: mc2155 ; value: >100 µM
O=C(O)c1cn(C2CC2)c2cc(N3CCNCC3)c(F)cc2c1=O ; strain: CCM ; method: absorbance ; value: 0.098–0.195 µg/mL
NNC(=O)c1ccncc1 ; strain: mc2155 ; method: resazurin ; value: 125 µM
CNCC1CCN(c2c(F)cc3c(=O)c(C(=O)O)cn(C4CC4)c3c2F)C1 ; strain: ATCC 19420 ; value: 0.13 µg/mL
COc1ccc(-c2c(C)c(C(=O)O)nc(-c3ccc4c(O)c(OC)c5c(c4n3)=NC(C)(C)N=5)c2N)c(O)c1OC ; strain: mc2155 ; value: 25 µM
Cc1nn(-c2ccccc2)c2c1C(c1cn(-c3ccccc3)nc1-c1ccc(Cl)cc1)C1=C(NC(C)(c3cc(O)cc(O)c3)NC1=O)O2 ; strain: NCIM 5138 ; method: agar diffusion / agar ; value: 100 µg/mL
CC1CN(c2c(F)cc3c(=O)c(C(=O)O)cn(-c4ccc(F)cc4F)c3c2F)CCN1 ; strain: ATCC 19420 ; value: 2 µg/mL
Cc1nn(-c2ccccc2)c2c1C(c1cn(-c3ccccc3)nc1-c1ccc(F)cc1)C1=C(NC(C)(c3cc(O)ccc3Cl)NC1=O)O2 ; strain: NCIM 5138 ; method: agar diffusion / agar ; value: 100 µg/mL
CC[n+]1c(-c2ccccc2)c2cc(N)ccc2c2ccc(N)cc21 ; strain: MC^2 552 (ciprofloxacin-resistant) ; value: 32 µg/mL
CC(C)c1cnc(C(=O)/C=C/c2ccc(Br)cc2)cn1 ; strain: CCM ; method: absorbance ; value: >500 µg/mL
Nc1ccc2oc3ccc(C(=O)O)cc3c(=O)c2c1 ; strain: ATCC 607 ; value: >32 µg/mL
Cc1nn(-c2ccccc2)c2c1C(c1cn(-c3ccccc3)nc1-c1ccc(F)cc1)C1=C(NC(C)(c3cc(O)c(I)cc3Cl)NC1=O)O2 ; strain: NCIM 5138 ; method: agar diffusion / agar ; value: 60 µg/mL
O=C(/C=C/c1ccc(Br)cc1)c1cnccn1 ; strain: CCM ; method: absorbance ; value: 62.5 µg/mL
O=C(O)c1cccc2c(=O)c3ccccc3oc12 ; strain: ATCC 607 ; value: >32 µg/mL
CN1CCN(c2c(F)cc3c(=O)c(C(=O)O)cn(C4CC4)c3c2Br)CC1 ; strain: ATCC 19420 ; value: 0.13 µg/mL
Cc1cccc2oc3ccccc3c(=O)c12 ; strain: ATCC 607 ; value: >32 µg/mL
CC1CN(c2c(F)cc3c(=O)c(C(=O)O)cn(C4CC4)c3c2F)CC(C)N1 ; strain: ATCC 19420 ; value: 0.13 µg/mL
O=C(O)c1c[nH]c2cc(OCc3ccccc3)ccc2c1=O ; strain: mc2155 ; value: >100 µM
O=C(O)c1cn(C2CC2)c2nc(N3CCNCC3)c(F)cc2c1=O ; strain: ATCC 19420 ; value: 0.5 µg/mL
COc1cc(NC(C)CCCN)c2ncccc2c1 ; strain: mc2155 ; method: resazurin ; value: 620 µM
Cc1nn(-c2ccccc2)c2c1C(c1cn(-c3ccccc3)nc1-c1ccc(Cl)cc1)C1=C(NC(C)(c3cc(O)c(I)cc3Cl)NC1=O)O2 ; strain: NCIM 5138 ; method: agar diffusion / agar ; value: 70 µg/mL
NC(=O)c1ccc2c(=O)c3ccccc3oc2c1 ; strain: ATCC 607 ; value: >32 µg/mL
COc1c(N2CC(C)NC(C)C2)c(F)cc2c(=O)c(C(=O)O)cn(C3CC3)c12 ; strain: ATCC 19420 ; value: 0.13 µg/mL
CN(C)[C@@H]1C(=O)C(C(N)=O)=C(O)[C@@]2(O)C(=O)C3=C(O)c4c(O)cccc4[C@@](C)(O)[C@H]3C[C@@H]12 ; strain: PSB51 LFR (CCCP) ; value: 0.5 µg/mL
CC(C)(C)c1cnc(C(=O)/C=C/c2ccc(Cl)cc2)cn1 ; strain: CCM ; method: absorbance ; value: >250 µg/mL
CO[C@H]1/C=C/O[C@@]2(C)Oc3c(C)c(O)c4c(O)c(c(CN5CCN(C)CC5)c(O)c4c3C2=O)NC(=O)/C(C)=C\C=C\[C@H](C)[C@H](O)[C@@H](C)[C@@H](O)[C@@H](C)[C@H](OC(C)=O)[C@@H]1C ; strain: mc2155 ; value: >100 µM
CCn1cc(C(=O)O)c(=O)c2cc(F)c(N3CCNC(C)C3)nc21 ; strain: ATCC 19420 ; value: 1 µg/mL
O=C(/C=C/c1ccc(F)cc1)c1cnccn1 ; strain: CCM ; method: absorbance ; value: 15.6 µg/mL

Lines come from different laboratories, so protocols vary.